Results of unrelated studies side by side (data: NIAID ChemDB).

All rows: growth or infection tests; agent: Hepatitis B virus; method: PCR; measure: EC50

Lines come from different laboratories, so protocols vary. Blank or dashed fields: not listed here. ECn is the concentration giving n% inhibition of infection, replication or growth. Two numbers with a dash give a range or band.

compound	setting	cells	value
Cn1nc2cc(NS(=O)(=O)c3cnn(-c4ccc(F)cn4)c3)ccc2c1C(=O)Nc1ccc(F)c(Cl)c1		HepAD38	<100 µM
CNC(=O)c1ccc(-n2c(=O)c3c(n4ncc(Cc5ccc(OC(F)(F)F)cc5)c24)CN(C(=O)c2ccc(Cl)c(Cl)c2)CC3)cc1	3 d	HepG2.117	0.1–0.5 µM
CC(C)NC(=O)c1c2n(c(=O)n1-c1ccccc1)CCN(C(=O)c1ccc(Br)c(Cl)c1)C2		HepG2.2.15	>5 µM
Cn1nc2cc(NS(=O)(=O)C3CC(O)C3)ccc2c1C(=O)Nc1ccc(F)c(Cl)c1		HepAD38	100–1000 µM
CNC(=O)c1ccc(-n2c(=O)c3c(n4ncc(Cc5ccccc5)c24)CN(C(=O)c2ccc(Br)cn2)CC3)cc1	3 d	HepG2.117	0.5–5 µM
C#CC1(NC(=O)C(=O)c2c(F)c(C(=O)Nc3ccc(F)c(C#N)c3)n(C)c2C)COC1		HepG2.2.15	<0.001 µM
COc1ccc(-n2c(C(=O)N[C@@H](c3ccccc3)C3CC3)c3n(c2=O)CCN(C(=O)c2ccc(Br)c(Cl)c2)C3)cc1		HepG2.117	0.5–5 µM
CNC(=O)c1ccc(-n2c(=O)c3c(n4ncc(Cc5ccccc5)c24)CN(C(=O)c2ccc(Cl)c(Cl)c2)CC3)cc1	3 d	HepG2.117	<0.1 µM
CNC(=O)C(=O)N1CC[C@@H](NS(=O)(=O)c2cn(CC(F)F)c(C(=O)Nc3ccc(F)c(F)c3)c2F)C1		HepAD38 cells	<0.1 µM
C#CCNC(=O)C(=O)c1c(F)c(C(=O)Nc2ccc(F)c(C#N)c2)n(C)c1Cl		HepG2.2.15	0.1–0.999 µM
Cn1nc2cc(NS(=O)(=O)c3cnn(CCc4ccccc4)c3)ccc2c1C(=O)Nc1ccc(F)c(Cl)c1		HepAD38	100–1000 µM
CNC(=O)c1ccc(-n2c(=O)c3c(n4ncc(NC(C)c5ccccc5)c24)CN(C(=O)c2ccc(Br)c(C#N)c2)CC3)cc1	3 d	HepG2.117	0.1–0.5 µM
Cn1nc2cc(NS(=O)(=O)c3cnn(C4CC4)c3)ccc2c1C(=O)Nc1ccc(F)c(Cl)c1		HepAD38	<100 µM
CCNC(=O)C(=O)N1CCC(NS(=O)(=O)c2cn(C)c(C(=O)Nc3ccc(F)c(F)c3)c2F)C(C)C1		HepAD38 cells	<0.1 µM
COc1ccc(-n2c(=O)c3c(n4ncc(NS(=O)(=O)Cc5ccccc5)c24)CN(C(=O)c2ccc(Br)c(Cl)c2)CC3)cc1	3 d	HepG2.117	0.5–5 µM
Cc1c(C(=O)C(=O)NC(C)(C)c2cnc[nH]2)c(C)n(C)c1C(=O)Nc1ccc(F)c(C(F)(F)F)c1		HepG2.2.15	0.001–0.0099 µM
Cc1cc(NC(=O)c2c(F)c(S(=O)(=O)N[C@@H]3CCCN(S(=O)(=O)C4CC4)C3)cn2C)ccc1F		HepAD38 cells	<0.1 µM
Cn1nc2cc(NS(=O)(=O)c3cnn(-c4cccc(F)n4)c3)ccc2c1C(=O)Nc1ccc(F)c(Cl)c1		HepAD38	<100 µM
CNC(=O)c1ccc(-n2c(=O)c3c(n4ncc(NCc5ccccc5)c24)CN(C(=O)c2ccc(Cl)c(Cl)c2)CC3)cc1	3 d	HepG2.117	<0.1 µM
C[C@@H](NC(=O)c1c2n(c(=O)n1-c1ccc(OCC(F)(F)F)cc1)CCN(C(=O)c1ccc(Br)c(Cl)c1)C2)c1ccc(OCC(N)=O)cc1F		HepG2.117	0.5–5 µM
C#C[C@@H](NC(=O)C(=O)c1c(C)c(C(=O)Nc2ccc(F)c(C#N)c2)n(C)c1C)C(C)(C)C		HepG2.2.15	<0.001 µM
Cn1nc2cc(NS(=O)(=O)c3cnn(-c4ccnc(Cl)n4)c3)ccc2c1C(=O)Nc1ccc(F)c(Cl)c1		HepAD38	>1000 µM
CC1(C)C(=O)Nc2ccc(-n3c(C(=O)NCc4ccccc4)c4n(c3=O)CCN(C(=O)c3ccc(Br)c(Cl)c3)C4)cc21		HepG2.117	0.5–5 µM
Cc1c(C(=O)C(=O)NC(C)(C)c2nccs2)c(C)n(C)c1C(=O)Nc1ccc(F)c(C#N)c1		HepG2.2.15	0.001–0.0099 µM
COc1ccc(-n2c(C(=O)Nc3ccc(OC)cc3OC)c3n(c2=O)CCN(C(=O)c2ccc(Br)c(Cl)c2)C3)cc1		HepG2.117	<0.1 µM
Cn1cc(S(=O)(=O)Nc2cc3nn(C)c(C(=O)Nc4ccc(F)c(Cl)c4)c3cc2F)cn1		HepAD38	>1000 µM
COc1ccc(-n2c(C(=O)N[C@@H](C(=N)N)c3ccccc3)c3n(c2=O)CCN(C(=O)c2ccc(Br)c(Cl)c2)C3)cc1		HepG2.117	>5 µM
C#CCNC(=O)C(=O)c1cn(C)c(C(=O)Nc2ccc(F)c(C#N)c2)c1F		HepG2.2.15	0.1–0.999 µM
Cn1nc2cc(S(=O)(=O)NC3CC3)ccc2c1C(=O)Nc1ccc(F)c(Cl)c1		HepAD38	<100 µM
C=C[C@](C)(NC(=O)C(=O)c1c(C)c(C(=O)Nc2ccc(F)c(C#N)c2)n(C)c1C)C(F)(F)F		HepG2.2.15	0.001–0.0099 µM
O=C(NC1CC1)C(=O)N1CCC(NS(=O)(=O)c2c(F)c(C(=O)Nc3cc(F)c(F)c(F)c3)n3c2CCC3)CC1		HepAD38 cells	<0.1 µM
C[C@@H](NC(=O)c1c2n(c(=O)n1-c1ccc(OCC(F)(F)F)cc1)CCN(C(=O)c1ccc(Br)c(Cl)c1)C2)c1cccc2nccnc12		HepG2.117	0.1–0.5 µM
C#CC(C)(C)NC(=O)C(=O)c1c(C)c(C(=O)Nc2ccc(F)c(F)c2)n(C)c1C		HepG2.2.15	0.001–0.0099 µM